{"source": "PubChem BioAssay AID504761, Drosophila RNAi Screening Center | 2011", "purpose": "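Insect host genes that dengue virus relies on to spread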 (primary screen)", "system": "D.Mel-2 cells from Drosophila", "knock-down reagent": "long dsRNA against Drosophila genes", "treatment": "infection with dengue virus type 2; dose and infection time not stated", "detection": "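Cells stained for dengue envelope protein and imaged; percent of infected cells per well on duplicate plates, ranked by infection, with stained nuclei counted for cell number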", "scale": "infection score: higher = more virus-infected cells; cell count: higher = more cells in the well", "rule for the call": "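Low infection ranks in the two replicates (chance level up to 0.065) followed by a retest with a 1.5-fold or larger significant decrease, p below 0.05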", "meaning of the calls": "active = confirmed: knock-down lowers infection; inactive = not picked or not confirmed", "note": "The screen tested about 22,000 reagents; below is an unselected part of those that have a named target and a result. Over the whole deposit, 116 (0.52%) got an active call. 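Calls depend on retest data that are not deposited; infection was ranked per plate without normalising between plates; the unit of the infection score is not given.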 The raw values are shown without normalisation. Further read-outs or replicates are left out here. Not given: the amount of reagent, the time to read-out."}
The first 2 entries, ahead of the listing:
{"Target gene":"CG13365","dsRNA":"DRSC17899","infection score, replicate 1":1.99,"cell count, replicate 1":6424,"Outcome":"inactive"}
{"Target gene":"CG13365","dsRNA":"DRSC27043","infection score, replicate 1":6.69,"cell count, replicate 1":6246,"Outcome":"inactive"}

The listing, from the start:
{"Target gene":"CG13365","dsRNA":"DRSC17899","infection score, replicate 1":1.99,"cell count, replicate 1":6424,"Outcome":"inactive"}
{"Target gene":"CG13365","dsRNA":"DRSC27043","infection score, replicate 1":6.69,"cell count, replicate 1":6246,"Outcome":"inactive"}
{"Target gene":"hyd","dsRNA":"DRSC16971","infection score, replicate 1":10.2,"cell count, replicate 1":6441,"Outcome":"inactive"}
{"Target gene":"hyd","dsRNA":"DRSC28294","infection score, replicate 1":0.25,"cell count, replicate 1":398,"Outcome":"inactive"}
{"Target gene":"Vps11","dsRNA":"DRSC11909","infection score, replicate 1":0.79,"cell count, replicate 1":5923,"Outcome":"inactive"}
{"Target gene":"Vps11","dsRNA":"DRSC21579","infection score, replicate 1":2.75,"cell count, replicate 1":6027,"Outcome":"inactive"}
{"Target gene":"Obp83cd","dsRNA":"DRSC12267","infection score, replicate 1":3.37,"cell count, replicate 1":6558,"Outcome":"inactive"}
{"Target gene":"Klp10A","dsRNA":"DRSC19601","infection score, replicate 1":5.52,"cell count, replicate 1":1231,"Outcome":"inactive"}
{"Target gene":"Klp10A","dsRNA":"DRSC24185","infection score, replicate 1":2.01,"cell count, replicate 1":6128,"Outcome":"inactive"}
{"Target gene":"CG13096","dsRNA":"DRSC02198","infection score, replicate 1":3.91,"cell count, replicate 1":6495,"Outcome":"inactive"}
{"Target gene":"CG4213","dsRNA":"DRSC00641","infection score, replicate 1":32.9,"cell count, replicate 1":5650,"Outcome":"inactive"}
{"Target gene":"CG17186","dsRNA":"DRSC15180","infection score, replicate 1":10.2,"cell count, replicate 1":1497,"Outcome":"inactive"}
{"Target gene":"CG17186","dsRNA":"DRSC27612","infection score, replicate 1":2.61,"cell count, replicate 1":6851,"Outcome":"inactive"}
{"Target gene":"Neto","dsRNA":"DRSC18982","infection score, replicate 1":26.3,"cell count, replicate 1":5671,"Outcome":"inactive"}
{"Target gene":"Neto","dsRNA":"DRSC19503","infection score, replicate 1":3.02,"cell count, replicate 1":6390,"Outcome":"inactive"}
{"Target gene":"Neto","dsRNA":"DRSC19716","infection score, replicate 1":0.43,"cell count, replicate 1":6546,"Outcome":"inactive"}
{"Target gene":"Neto","dsRNA":"DRSC19717","infection score, replicate 1":0.9,"cell count, replicate 1":6331,"Outcome":"inactive"}
{"Target gene":"CG11672","dsRNA":"DRSC14344","infection score, replicate 1":6.46,"cell count, replicate 1":6413,"Outcome":"inactive"}
{"Target gene":"Sse","dsRNA":"DRSC09746","infection score, replicate 1":4.73,"cell count, replicate 1":3426,"Outcome":"inactive"}
{"Target gene":"Cdc14","dsRNA":"DRSC03013","infection score, replicate 1":2.96,"cell count, replicate 1":6410,"Outcome":"inactive"}
{"Target gene":"Cdc14","dsRNA":"DRSC26430","infection score, replicate 1":4.67,"cell count, replicate 1":5310,"Outcome":"inactive"}
